Compound potency records, mixed from different reports. Data source: NIAID ChemDB in PubChem.

All rows: growth or infection tests; species: Influenza A virus

Two numbers with a dash give a range or band. ECn: concentration that inhibits the pathogen or its effect by n%. Conditions beyond the fields shown may differ between rows. Blank or dashed fields: not listed here. Inhibition is in % at the dose shown (toxicity tests: loss of growth or viability).

smiles	dose	strain	cells	endpoint	result
C[NH2+]C12CC3CC(C)(CC(C)(C3)C1)C2	8 µg/mL	H2N2 A/Singapore/1/57	MDCK	inhibition	100%
NC(=O)c1nc(F)c[nH]c1=O		H2N2 Takathuki/4/65	MDCK	EC50	0.048 µg/mL
CC(N)C12CC3CC(CC(C3)C1)C2		H2N2 A2 JAPAN/305/57	MDCK	EC50	13.9 µM
CN1CCC2(CC3CCC2(C)C3(C)C)C1	100 µM	A2 JAPAN	Chick embryo fibroblasts	inhibition	20–40%
C1CCC(C23CC4CC(CC(C4)C2)C3)NC1		H2N2 A2 JAPAN/305/57	MDCK	EC50	3.3 µM
CC(C)N1CCC2(C1)C1CC3CC(C1)CC2C3	100 µM	A2 JAPAN	Chick embryo fibroblasts	inhibition	40–70%
NC(=O)c1ncn([C@@H]2O[C@H](CO)[C@@H](O)[C@H]2O)n1		H2N2 A2 JAPAN/305/57	MDCK	EC50	22.1 µM
CC(=O)N[C@H]1[C@H]([C@H](O)[C@H](O)CO)OC(C(=O)O)=C[C@@H]1N=C(N)N		A/Singapore/1/57	MDCK	EC50	0.014 µM
O=C1CCCN1C12CC3CC(CC(C3)C1)C2	10 µg/mL	H2N2 A/Singapore/1/57	MDCK	inhibition	100%
C1CNC(C23CC4CC(CC(C4)C2)C3)C1		H2N2 A2 JAPAN/305/57	MDCK	EC50	2.5 µM
CCCCC12CC3CC(C1)CC(NC)(C3)C2	8 µg/mL	H2N2 A/Singapore/1/57	MDCK	inhibition	100%
NC12CC3CC(CC(C3)C1)C2	100 µM	A2 JAPAN	Chick embryo fibroblasts	inhibition	>70%
NCCC12CC3CC(C1)CC(CCN)(C3)C2	1 µg/mL	H2N2 A/Singapore/1/57	MDCK	inhibition	100%
N=C(N)c1ncn([C@@H]2O[C@H](CO)[C@@H](O)[C@H]2O)n1	7 µg/mL	H5N1 A/gull/PA/4175/83	MDCK	inhibition	90%
C1CC2(CN1)C1CC3CC(C1)CC2C3	100 µM	A2 JAPAN	Chick embryo fibroblasts	inhibition	40–70%
OCCN(CCO)C12CC3CC(CC(C3)C1)C2	4 µg/mL	H2N2 A/Singapore/1/57	MDCK	inhibition	100%

The last 2 rows once more:

smiles | dose | strain | cells | endpoint | result
C1CC2(CN1)C1CC3CC(C1)CC2C3 | 100 µM | A2 JAPAN | Chick embryo fibroblasts | inhibition | 40–70%
OCCN(CCO)C12CC3CC(CC(C3)C1)C2 | 4 µg/mL | H2N2 A/Singapore/1/57 | MDCK | inhibition | 100%